A mixed list of measured activities; the numbers were collected in NIAID ChemDB.

Common to all: growth or infection tests; agent: HIV-1; method: luciferase; measure: EC50

Conditions beyond the fields shown may differ between rows. Two numbers with a dash give a range or band. Blank or dashed fields: not listed here. ECn is the concentration giving n% inhibition of infection, replication or growth.

| SMILES | setting | mutations | cell line | strain | value |
|---|---|---|---|---|---|
| Oc1cccc2ccc(/C=N/Nc3ccc(Br)cc3)nc12 | - | - | TZM-bl | VB59 | >150 µM |
| COc1cnc(-n2cnc(C)n2)c2[nH]cc(C(=O)C(=O)N3CCN(C(=O)c4ccccc4)CC3)c12 | - | M426K | U-87 | NL4-3 | 0.0037 µM |
| O=C(Cn1ccc(=O)[nH]c1=O)Nc1ccc(Br)cn1 | - | - | TZM-bl | ADA5 | 43 µM |
| COC(=O)c1cccc2c(C(=O)C(=O)N3CCN(C(=O)c4ccccc4)C[C@@H]3C)c[nH]c12 | - | - | HeLa + HELA CD4+/CCR5 | - | <10 µM |
| CCCn1cc(C(=O)OCc2ccccc2)c(=O)c2c(NC(C)=O)nc(SC)nc21 | pseudotyped | - | HeLa | NL4-3 | >0.1 µM |
| C[C@@H]1CN(C(=O)c2cccc(N)c2)CCN1C(=O)C(=O)c1c[nH]c2c(F)ccc(F)c12 | - | - | HeLa + HELA CD4+/CCR5 | - | <10 µM |
| C[C@H]1CN(C(=O)Cn2ccn3c(=O)c(O)c(-c4ncc(Cc5ccc(F)c(Cl)c5)s4)nc23)C[C@H](C)O1 | - | Q148H/G140S | HEK 293 | - | 0.1–1 µM |
| O=C1Nc2ccc(Cl)cc2[C@@](C#CC2CC2)(C(F)(F)F)O1 | - | N348I | HEK293T | MJ4 C | 7.65 nM |
| C[C@H]1CN(C(=O)Cn2ccn3c(=O)c(O)c(-c4ncc(Cc5ccc(Cl)c(Cl)c5)s4)nc23)C[C@H](C)O1 | - | Q148H/G140S | HEK 293 | - | 0.1–1 µM |
| Cc1cn(CC(=O)Nc2ccc(Br)cn2)c(=O)[nH]c1=O | - | - | TZM-bl | IIIB | 17 µM |
| CC(=O)Nc1nc(-c2cccc(NC(=O)[C@@H](N)CCCCN)c2)cs1 | - | - | - | NL4-3 | 0.63 µM |
| O=Cc1ccc2cccc(O)c2n1 | - | - | TZM-bl | UG070 | 10.57 µM |
| CC(C)[C@@H](CO)n1cc(C(=O)O)c(=O)c2cc(F)c(NCc3ccc(F)cc3)nc21 | pseudotyped | - | HeLa | NL4-3 | >0.1 µM |
| Cn1cc(C(=O)N2CCC(c3cc(CCOc4ccccc4Cl)[nH]n3)C2)cn1 | - | - | TZM-bl | BaL | 3.59 µM |
| CC1CC(C)CN(C(=O)Cn2cc(CS(C)(=O)=O)n3c(=O)c(O)c(C(=O)NCc4ccc(Cl)c(Cl)c4)nc23)C1 | - | QHGS | HEK 293 | - | <0.5 µM |
| Oc1cccc2ccc(/C=N/Nc3ccccc3C(F)(F)F)nc12 | - | - | TZM-bl | VB59 | 16.57 µM |
| Cc1cn([C@H]2C[C@H](N=[N+]=[N-])[C@@H](CO)O2)c(=O)[nH]c1=O | - | - | TZM-bl | SF162 | 0.00237 µM |
| C[C@]1(CO)O[C@@H](n2cnc3c(N)ncnc32)C[C@@H]1O | - | (delta)Env | TZM-bl | - | 0.069 µM |
| O=C(Cn1ccc(=O)[nH]c1=O)Nc1ccccn1 | - | - | TZM-bl | IIIB | 243 µM |
| CC1CC(C)CN(C(=O)Cn2cc(N3CCCS3(=O)=O)n3c(=O)c(O)c(C(=O)NCc4ccc(Cl)c(Cl)c4)nc23)C1 | - | QHGS | HEK 293 | - | 0.5–1 µM |
| O=C(NCCN1CCCC2=C[C@@H]3C[C@@H](CN4CCCC[C@H]34)[C@@H]21)c1cccc(F)c1 | - | - | MT-4 | NL4-3 | >25 µM |
| COc1cc2c3c(cc4ccccc4c3c1OC)N(CCN1CCCCC1)C2=O | - | - | TZM-bl | NL4-3 | 1.06 µM |
| COc1nc2c(cc1N1CCc3ccc(F)cc3C1)c(=O)c(C(=O)O)cn2[C@H](CO)C(C)C | pseudotyped | - | HeLa | NL4-3 | >0.1 µM |
| C[C@@H]1CN(C(=O)c2ccccn2)CCN1C(=O)C(=O)c1c[nH]c2cc(Cl)ccc12 | - | - | HeLa + HELA CD4+/CCR5 | - | <10 µM |
| O=C(CCC(=O)Nc1ccc([N+](=O)[O-])cn1)Nc1ccc([N+](=O)[O-])cn1 | - | - | TZM-bl | IIIB | 15.7 µM |
| COCC(=O)N1CCC(c2cc(CCOc3ccccc3C(F)(F)F)[nH]n2)C1 | - | - | TZM-bl | BaL | 2.17 µM |
| O=C(Cc1ccc2c(c1)OC(F)(F)O2)NCCCCN1CCCC2=C[C@@H]3C[C@@H](CN4CCCC[C@H]34)[C@@H]21 | - | - | MT-4 | NL4-3 | 0.62 µM |
| COc1ccccc1OCCc1cc(C2CCN(C(=O)c3cnn(C)c3)C2)n[nH]1 | - | - | TZM-bl | BaL | >100 µM |
| COc1cc2c(cc1NCc1ccc(Cl)c(F)c1)C(=O)C(=O)C(C)N2c1ccc(C)cc1 | pseudotyped | - | HeLa | NL4-3 | >0.1 µM |
| O=C(C(=O)N1CCN(C(=O)N2NC=CS2)CC1)c1c[nH]c2cccc(F)c12 | - | - | HeLa + HELA CD4+/CCR5 | - | <10 µM |
| CC(=O)Nc1nc(-c2cccc(NC(=O)C(CNC(=O)[C@@H](N)CCCN=C(N)N)NC(=O)[C@@H](N)CCCN=C(N)N)c2)cs1 | - | - | - | NL4-3 | 1.79 µM |
| Cc1cn(CC(=O)Nc2ccccn2)c(=O)[nH]c1=O | - | - | TZM-bl | IIIB | 23 µM |
| O=C(NCCCCCCN1CCC[C@H]2C[C@@H]3C[C@@H](CN4CCCC[C@H]34)[C@@H]21)c1ccc(OC(F)(F)F)cc1 | - | - | MT-4 | NL4-3 | >20 µM |
| C[C@H]1CN(C(=O)c2ccccc2)CCN1C(=O)C(=O)c1c[nH]c2cccc(Br)c12 | - | - | HeLa + HELA CD4+/CCR5 | - | <10 µM |
| COC(=O)c1cc(F)ccc1Cc1cnc(-c2nc3n(CC(=O)N4C[C@H](C)O[C@@H](C)C4)ccn3c(=O)c2O)s1 | - | QHGS | HEK 293 | - | 0.5–1 µM |
| O=C(C(=O)N1CCN(C(=O)c2ccccc2)CC1CO)c1c[nH]c2cccc(F)c12 | - | - | HeLa + HELA CD4+/CCR5 | - | <10 µM |
| O=C(NCCCCCCN1CCC[C@@H]2C[C@@H]3C[C@@H](CN4CCCC[C@H]34)[C@@H]21)c1ccc(OC(F)(F)F)cc1 | - | - | MT-4 | NL4-3 | >20 µM |
| CCn1cc(CN2CCC(c3cc(CCOc4ccc(C(F)(F)F)cc4)[nH]n3)C2)c(C)n1 | - | - | TZM-bl | BaL | >100 µM |
| Cc1cccc(N/N=C/c2ccc3cccc(O)c3n2)c1C | - | - | TZM-bl | VB59 | 14.9 µM |
| O=C(NCCCN1CCCC2=C[C@@H]3C[C@@H](CN4CCCC[C@H]34)[C@@H]21)c1c(F)cc(Br)cc1F | - | - | MT-4 | NL4-3 | >20 µM |
| O=C(CCC(=O)n1cnc2ccccc21)n1cnc2ccccc21 | - | - | TZM-bl | ADA5 | 40 µM |
| CN(C)S(=O)(=O)c1cc(F)ccc1CNC(=O)c1nc2n(CC(=O)N3CCCCC3)cc(N3CCCS3(=O)=O)n2c(=O)c1O | - | QHGS | HEK 293 | - | <0.5 µM |
| Oc1cccc2ccc(/C=N/Nc3ccccc3F)nc12 | - | - | TZM-bl | VB59 | 11.34 µM |
| Nc1cc2c3c(cc4ccccc4c3c1)N(CCN1CCCCC1)C2=O | - | - | TZM-bl | NL4-3 | 2 µM |
| COc1ccc(N/N=C/c2ccc3cccc(O)c3n2)cc1 | - | - | TZM-bl | VB59 | 1.88 µM |
| COc1cc2cc3c4c(cc(OC)c(OC)c4c2cc1OC)C(=O)N3CCN1CCCCC1 | - | - | TZM-bl | NL4-3 | 1.03 µM |
| CC(C)(C)[C@@H](CO)n1cc(C(=O)O)c(=O)c2cc(NCc3ccc(F)cc3)c(F)cc21 | pseudotyped | - | HeLa | NL4-3 | 0.01–0.1 µM |
| Cc1cc(C)cc(N/N=C/c2ccc3cccc(O)c3n2)c1 | - | - | TZM-bl | UG070 | 50.63 µM |

A second listing of 4 rows from above:

| SMILES | setting | mutations | cell line | strain | value |
|---|---|---|---|---|---|
| CC1CC(C)CN(C(=O)Cn2cc(N3CCCS3(=O)=O)n3c(=O)c(O)c(C(=O)NCc4ccc(Cl)c(Cl)c4)nc23)C1 | - | QHGS | HEK 293 | - | 0.5–1 µM |
| C[C@@H]1CN(C(=O)c2cccc(N)c2)CCN1C(=O)C(=O)c1c[nH]c2c(F)ccc(F)c12 | - | - | HeLa + HELA CD4+/CCR5 | - | <10 µM |
| COc1cnc(-n2cnc(C)n2)c2[nH]cc(C(=O)C(=O)N3CCN(C(=O)c4ccccc4)CC3)c12 | - | M426K | U-87 | NL4-3 | 0.0037 µM |
| C[C@H]1CN(C(=O)Cn2ccn3c(=O)c(O)c(-c4ncc(Cc5ccc(F)c(Cl)c5)s4)nc23)C[C@H](C)O1 | - | Q148H/G140S | HEK 293 | - | 0.1–1 µM |